The exact form of at least one protein or probe is not confirmed. Where a protein sequence is shown, tags need not be part of it.
Target: T1, RecGNm (Neisseria meningitidis MC58) (UniProt Q9JY17)
T1 sequence (looked up, limits assumed): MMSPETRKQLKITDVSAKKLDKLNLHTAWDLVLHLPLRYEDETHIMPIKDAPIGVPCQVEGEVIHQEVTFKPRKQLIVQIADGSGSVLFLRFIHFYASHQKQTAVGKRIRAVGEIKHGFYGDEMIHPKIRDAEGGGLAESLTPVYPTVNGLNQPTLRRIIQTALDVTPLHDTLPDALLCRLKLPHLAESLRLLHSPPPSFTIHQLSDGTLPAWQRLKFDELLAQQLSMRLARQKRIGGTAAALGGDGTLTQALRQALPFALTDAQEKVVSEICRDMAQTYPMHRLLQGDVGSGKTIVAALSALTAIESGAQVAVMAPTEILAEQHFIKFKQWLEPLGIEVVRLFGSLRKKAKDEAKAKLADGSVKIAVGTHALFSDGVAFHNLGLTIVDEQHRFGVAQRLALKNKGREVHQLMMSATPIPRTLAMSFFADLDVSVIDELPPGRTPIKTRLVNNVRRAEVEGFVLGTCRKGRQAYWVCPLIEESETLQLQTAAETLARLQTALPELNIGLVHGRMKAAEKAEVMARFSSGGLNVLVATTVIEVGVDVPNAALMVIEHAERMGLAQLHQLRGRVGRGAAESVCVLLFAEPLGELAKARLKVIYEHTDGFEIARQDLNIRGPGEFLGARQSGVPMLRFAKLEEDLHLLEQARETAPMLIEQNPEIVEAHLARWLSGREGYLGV
Experiment: EMSA
Settings: 200-400 nM protein; EMSA: 40 mM Tris-HCl pH 8, 2.5 mM EDTA, 2 mM MgCl2, 6% glycerol, 1 mM DTT, 0.1 nM DNA, 15 min on ice; recombinant protein; protein details: N-terminal 6xHis (pET28b)

Binding result, binds:
GGGTGAACCTGCAGGTGGGCGGCTGCTCATCGTAGGTTAGTTGGTAGAATTCGGCAGCGTC / GACGCTGCCGAATTCTACCAGTGCCTTGCTAGGACATCTTTGCCCACCTGCAGGTTCACCC / TAAGAGCAAGATGTTCTATAAAAGATGTCCTAGCAAGGCAC [5' tail D-loop]
GGGTGAACCTGCAGGTGGGCGGCTGCTCATCGTAGGTTAGTTGGTAGAATTCGGCAGCGTC / GACGCTGCCGAATTCTACCAGTGCCTTGCTAGGACATCTTTGCCCACCTGCAGGTTCACCC / TATAGAACATCTTGCTCGTTTTCGAGCAAGATGTTCTATAAAAGATGTCCTAGCAAGGCAC [5' hairpin tail D-loop]
GGGTGAACCTGCAGGTGGGCGGCTGCTCATCGTAGGTTAGTTGGTAGAATTCGGCAGCGTC / GACGCTGCCGAATTCTACCAGTGCCTTGCTAGGACATCTTTGCCCACCTGCAGGTTCACCC / AAAGATGTCCTAGCAAGGCACGATCGACCGGATATCTATGA [3' tail D-loop]

Source: article PMC5063381, “Characterization of the Neisseria meningitidis Helicase RecG” (PLoS ONE, 2016)
